Results: US7087375B1, “Method for determining the mechanism of HIV RT inhibitors” (priority 2000, dated 2006)
Where “and” joins values, the source holds several entries; their conditions need not be identical. Identical values can stand only once.

Biological target: T1, HIV-1 RT wild type (HXB2) (Human immunodeficiency virus type 1 group M subtype B, UniProt P04585)
T1 construct: The final RT products, in a heterodimeric form (p66/p51); made in house; host or cells: E. coli XL1-Blue (vector pKK233-2)
Format: biochemical

d4T-TP
Fold resistance in RT-assay relative to HXB2: 1.0 +/− 0.1 fold
Ki: 1.1 nM and 1.6 nM
Ki/Km: 0.0081 and 0.01
